Measurements reported in PubChem BioAssay AID504761 (Drosophila RNAi Screening Center, 2011).
Aim: 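Insect host genes that dengue virus relies on to spread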 (primary screen). Cell system: D.Mel-2 cells from Drosophila. Knock-down reagent: long dsRNA against Drosophila genes. Treatment: infection with dengue virus type 2; dose and infection time not stated. Detection: 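Per well on two replicate plates, imaging gave the percent of cells positive for viral envelope protein, ranked by infection, and a nuclear count of cells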. Reading the numbers: infection score: higher = more virus-infected cells; cell count: higher = more cells in the well. Active means: 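Very low infection ranking in both replicate wells (chance probability at most 0.065), then a retest showing infection dropped 1.5-fold or more at p below 0.05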. Calls: active = confirmed: knock-down lowers infection; inactive = not picked or not confirmed.
In all, the deposit lists about 22,000 reagents; below is a random part of those with a known target gene and a result. Over the whole deposit, 116 (0.52%) were called active. 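Calls depend on retest data that are not deposited; infection was ranked per plate without normalising between plates; the unit of the infection score is not given.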 Raw values vary from plate to plate and are shown uncorrected. Names joined by + are all predicted targets of the reagent. The record does not give: the amount of reagent, the time to read-out.

gene	amplicon	infection score, replicate 1	infection score, replicate 2	cell count, replicate 1	cell count, replicate 2	outcome
brm (brahma)	DRSC11330	0.14	0.36	5585	5261	active
brm (brahma)	DRSC26226	4.16	6.5	1682	3613	inactive
sha (shavenoid)	DRSC06331		19.3	539	4873	inactive
Ser6 (Serine protease 6)	DRSC20574	11.6	3.44	6245	5267	inactive
Ser6 (Serine protease 6)	DRSC27628	33.6	2.93	5036	6690	inactive
fos28F (retired record)	DRSC03391	2.05	11.3	6390	5254	inactive
wntD (wnt inhibitor of Dorsal)	DRSC16423	3.54	7.5	6862	6548	inactive
wntD (wnt inhibitor of Dorsal)	DRSC28538	14.2	16.5	5356	5391	inactive
Gem3 (Gemin 3)	DRSC11144	2.84	2.99	6159	5581	inactive
Ugt304A1 (UDP-glycosyltransferase family 304 member A1)	DRSC15127	4.39	7.08	6768	6925	inactive
Ugt304A1 (UDP-glycosyltransferase family 304 member A1)	DRSC26693	1.47	7.36	6042	6387	inactive
aru (arouser)	DRSC00802	1.22	2.31	6564	6326	inactive
aru (arouser)	DRSC22019	3.56	12.4	7266	6583	inactive
CG15369	DRSC18041	2.21	5.19	6141	6567	inactive
Mov10 (Mov10 RISC complex RNA helicase)	DRSC07012	9.21	9.36	6678	6454	inactive
Ugt49C1 (UDP-glycosyltransferase family 49 member C1)	DRSC04252	1.47	2.22	6449	6700	active
Ugt49C1 (UDP-glycosyltransferase family 49 member C1)	DRSC27301	14.9	35.3	5644	6496	inactive
CG11722	DRSC14358	4.89	10.2	6602	6352	inactive
CG10621	DRSC02078	1.41	5.16	6240	6351	inactive
Rhau (RHAU helicase)	DRSC03200	11.7	6.35	5255	6343	inactive
Rhau (RHAU helicase)	DRSC27042	3.86	8.26	6509	6602	inactive
Chpf (Chondroitin polymerizing factor)	DRSC19491	1.22	1.58	6498	6402	inactive
Chpf (Chondroitin polymerizing factor)	DRSC19893	2.87	3.74	6545	6788	inactive
CREG (Cellular Repressor of E1A-stimulated Genes)	DRSC16595	2.89	3.07	6097	5986	inactive
Jon99Ciii + Jon99Fi + Jon99Fii + 1 more	DRSC29104	16.3	18.5	4491	5344	inactive
CG15286	DRSC23386	4.38	5.84	6490	5972	inactive
CG31642	DRSC02919	1.68	0.81	6064	6200	inactive
CG31642	DRSC26391	1.43	1.76	6414	6310	inactive
CG2124	DRSC18208	0.51	0.77	6255	6084	active
Grd (Glycine receptor)	DRSC11178	3.16	1.82	5953	6254	inactive
Grd (Glycine receptor)	DRSC28513	10.4	11.4	4638	1843	inactive
CG10321	DRSC04061	19.1	2.62	6743	4762	inactive
CG10321	DRSC28284	14.2	15.9	5125	5770	inactive
DIP-delta (Dpr-interacting protein delta)	DRSC10214	10	20.8	5657	5392	inactive
DIP-delta (Dpr-interacting protein delta)	DRSC10450	11.6	8.33	5801	5785	inactive
spir (spire)	DRSC03619	13.2	4.77	4440	6733	inactive
spir (spire)	DRSC24744	4.92	1.29	6386	6580	inactive
SNF4Agamma (SNF4/AMP-activated protein kinase gamma subunit)	DRSC13461	1.5	3.57	5817	5857	inactive
SNF4Agamma (SNF4/AMP-activated protein kinase gamma subunit)	DRSC13463	0.89	2	6079	6500	inactive
SNF4Agamma (SNF4/AMP-activated protein kinase gamma subunit)	DRSC15879	12.9	13.8	5611	5362	inactive
SNF4Agamma (SNF4/AMP-activated protein kinase gamma subunit)	DRSC16847	3.59	3.71	4148	4501	inactive
Cyp6v1 (Cytochrome P450 6v1)	DRSC20565	2.62	2.57	5695	5593	inactive
Cyp6v1 (Cytochrome P450 6v1)	DRSC29247		19.6	394	5966	inactive
Ssk (Snakeskin)	DRSC10756	10.2	30.6	6330	5059	inactive
CG32284	DRSC08025	0.55	1.37	6227	5907	inactive
CG42399	DRSC00322	3.4	1.8	6743	7166	inactive
CG42399	DRSC00661	2.63	2.86	6455	6817	inactive
Npc2g (Niemann-Pick type C-2g)	DRSC14296	4.08	6.5	6080	6335	inactive
Muc12Ea (Mucin 12Ea)	DRSC19937	1.98	6.27	5744	6544	inactive
Muc12Ea (Mucin 12Ea)	DRSC28059	4.11	14.9	6528	5315	inactive
mh (maternal haploid)	DRSC20168	1.62	0.96	6553	6552	inactive
pdgy (pudgy)	DRSC19064	3.48	6.76	6381	6498	inactive
pdgy (pudgy)	DRSC19341	11.7	0.45	6348	6874	inactive
KrT95D (Krueppel target at 95D)	DRSC16725	2.78	2.33	6106	6960	inactive
KrT95D (Krueppel target at 95D)	DRSC25551	5.22	10.3	6107	5618	inactive
Slc25A46a	DRSC20125	2.54	1.88	6152	6386	inactive
Gpdh1 (Glycerol-3-phosphate dehydrogenase 1)	DRSC03336	1.41	2.08	6308	7158	inactive
Gpdh1 (Glycerol-3-phosphate dehydrogenase 1)	DRSC21666	0.78	2.61	5800	6523	inactive

10 neighbouring records already listed, for reference:
gene	amplicon	infection score, replicate 1	infection score, replicate 2	cell count, replicate 1	cell count, replicate 2	outcome
Grd (Glycine receptor)	DRSC11178	3.16	1.82	5953	6254	inactive
Grd (Glycine receptor)	DRSC28513	10.4	11.4	4638	1843	inactive
CG10321	DRSC04061	19.1	2.62	6743	4762	inactive
CG10321	DRSC28284	14.2	15.9	5125	5770	inactive
DIP-delta (Dpr-interacting protein delta)	DRSC10214	10	20.8	5657	5392	inactive
DIP-delta (Dpr-interacting protein delta)	DRSC10450	11.6	8.33	5801	5785	inactive
spir (spire)	DRSC03619	13.2	4.77	4440	6733	inactive
spir (spire)	DRSC24744	4.92	1.29	6386	6580	inactive
SNF4Agamma (SNF4/AMP-activated protein kinase gamma subunit)	DRSC13461	1.5	3.57	5817	5857	inactive
SNF4Agamma (SNF4/AMP-activated protein kinase gamma subunit)	DRSC13463	0.89	2	6079	6500	inactive
